Measurements reported in PMC12090800.
The exact form of at least one protein or probe is not confirmed.

How the values were obtained:
[1] = molecular target: SrrA-P (phosphorylated His-tagged SrrA) (UniProt Q5HP58); experiment: EMSA; conditions: SrrA-P 50-250 uM, recombinant protein, protein details: His, label: 5'-biotin, probe letters rebuilt from the primers and the genome
[2] = molecular target: SrrA-P (phosphorylated His-tagged SrrA) (UniProt Q5HP58); experiment: competition with a labelled probe; conditions: 125-fold excess unlabeled vs labeled p-srrAB, 250 uM SrrA-P; recombinant protein; protein details: His; probe letters rebuilt from the primers and the genome

Sequence	binding result [1]	also measured
AATCATAAAAATTCCTCCTTAATATTTAGTATAAATGAAAAGTAAAAAATTGAATCAATCATAAAGATAAACTTCATAAAATATTCAAATAATAATAAAAAGGTTGCAATTCATAAATTTATCCTTTGAAATATAGGATAATAGCTATCATAATTAGAAAAGAGGGAGGAATGAATTATGCTAACTGAAAAAGAGCAAGATATTATCAAACAAACTGTACCATTATTACAAGATAAAGGAACTGAGATTACTTCAATTTTTTATCCTAAGATGTTTGAGGCTAACCCAGAAT (double strand) [p-scdA]	binds	–
AGACATAGATAAATTCCTCCTGAAAAGTTAAGTGTTAATTAGAATTACTTAAAAATAATTGTTTGTTTATAATAATTCTAATCTCTTGTTTAGTATTATTACATCTTGGCATTGAATAGTCAACTTTAGAAGTTCTTAAAATCTATGAAAGTATAAAAAAGCTATAATTAAGCCGTTTTAAATCCCTCATTAATTAAAGAATAACGAGTAAAAAAAGTTGAAAATCCAATGTGAAACTGAAATTTTCAAATGTGTATGACTTTGAAATTCAGTTGTCATTCTCAACTATGGTTATTTTATTGAT (double strand) [p-ahpC]	binds	–
ATTCACACCCGTTTTATCTACGATATTTTTGAATTCTTTTTTAGTCGGTGTATGTTGAACAATATCAATGGATTCATAATTCACATCGTGCTCATCTAAAAACTTTGCAGCCTTTTTGCACGTTGTGCATTTCGGATACTGATAAAATTTAATCAATTACCTTTTACCTCCTTCTCTCTATTAACTTAAATATATCATGATATTTAATTGAACGCTTTAATTTTCAAGCTAATATTTTTGTTAATGTGCAGTCATTCGTTATAATAAGTTTACCAAATTACAAAAGGAGTAGATAGTGATGAAA (double strand) [p-serp0483]	binds	–
GCCGTCTCCCATCTATCTTAAAATATATCCCTCATTTTAATCTTTTTAAAGATACTATTCAATAACTTTTTAGTACTTTAAAGCGTAATTGTTAAATTTTTCTGATATTTCTTATGTTTTTCTATCAATAATTTTAAAATAAGTTTATTTGCTATCGGAAAAGGGTTTAATTAAAATAGATACTACATAGTAATCAATATTAAATATAAAAGTGAGGGGGAGCTTGCTATGTCAAAACAGGATGGAAAA (double strand) [p-katA]	binds	–
GGCCCTATAGATTTAAAAGGTTTGAACGCCGGTGAAGGAAGAGTTCTTACACCACATGAAGTAAAAATATTAAGACATTTGGCAGAAAACGGTAAATAAACACCAAAAAGATGTAATTACCATTAAGATTGATATTTTTTTCACAAGGTTAACCTTTGAGTCACTCAATAACGTTAACCTATGATATAATGACAAATGTATTTAACAGCAAGTGTAGGAGGTAGTAGAAAGTATGACTAACGAAATTTTAATCGTTGATGATGAAGATAG (double strand) [p-srrAB unlabeled competitor]	–	binding result [2]: binds
GGCCCTATAGATTTAAAAGGTTTGAACGCCGGTGAAGGAAGAGTTCTTACACCACATGAAGTAAAAATATTAAGACATTTGGCAGAAAACGGTAAATAAACACCAAAAAGATGTAATTACCATTAAGATTGATATTTTTTTCACAAGGTTAACCTTTGAGTCACTCAATAACGTTAACCTATGATATAATGACAAATGTATTTAACAGCAAGTGTAGGAGGTAGTAGAAAGTATGACTAACGAAATTTTAATCGTTGATGATGAAGATAG (double strand) [p-srrAB]	–	binding result ([1]; dose-dependent shift): binds
TTGATTTATTCACTTCCTATAATTACTATATATCATAATATTGAAACAGATTCATTATTTTAGAAGTTTATCATTTACTATCTTACGAATTTAAAATTTATATTGTAGCTTTCAATATCAACTTTTACTTTTTTATATAATTATTTTGATTTTCAAAAATACTACTGATTTTCATTAAAAAGTTAGAAATACCTTCAATCATTACTTTAAATCATAACATGAATTCTTTAATATTAAATTATATTGTAGTTGATAATAAATAAGTACTTACATAATATCTATGATAATGAGGTGAAAACAAATGAAAAAACCAGATATTCAACAGTTAAAAGATATCGT (double strand) [p-serp1797]	binds	–
